# Taken from: PubChem BioAssay AID504761 (Drosophila RNAi Screening Center, 2011)
# Test: 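Genome-wide fly cell screen for genes dengue virus requires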 (primary screen)
# Cells: D.Mel-2 cells from Drosophila
# Reagent: long dsRNA against Drosophila genes
# Treatment: infection with dengue virus type 2; dose and infection time not stated
# Read-out: 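Per well on two replicate plates, imaging gave the percent of cells positive for viral envelope protein, ranked by infection, and a nuclear count of cells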
# Scale: infection score: higher = more virus-infected cells; cell count: higher = more cells in the well
# Hit rule: 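Very low infection ranking in both replicate wells (chance probability at most 0.065), then a retest showing infection dropped 1.5-fold or more at p below 0.05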
# Meaning of the calls: active = confirmed: knock-down lowers infection; inactive = not picked or not confirmed
# The deposit covers about 22,000 reagents; this is an unselected part of those that have a named target and a result. In the full data, 116 (0.52%) are marked active. 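Calls depend on retest data that are not deposited; infection was ranked per plate without normalising between plates; the unit of the infection score is not given.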 The raw values are shown without normalisation. Reagents against one gene are numbered here. Names joined by + are all predicted targets of the reagent. Further read-outs or replicates are left out here. The record does not give: the amount of reagent, the time to read-out.
target gene,reagent,"infection score, replicate 1","infection score, replicate 2","cell count, replicate 1",Call
CG8560,1,3.83,2.17,6786,inactive
CG8560,2,7.88,3.7,6164,inactive
Mkrn1 (Makorin 1),1,3.02,1.21,5333,inactive
Mkrn1 (Makorin 1),2,1.53,2.13,5868,inactive
Dlish (Dachs ligand with SH3s),1,19.1,20.1,3704,inactive
CG12640,1,10.7,6.02,3176,inactive
CG12640,2,3.43,2.8,5831,inactive
CG9117,1,8.14,13.8,5908,inactive
Jwa,1,9.85,22.9,6406,inactive
Jwa,2,1.47,0.64,5768,inactive
CG12377 (retired record),1,11.8,19.8,6688,inactive
CG12377 (retired record),2,14.3,28.7,5865,inactive
hh (hedgehog),1,18.3,4.95,5576,inactive
hh (hedgehog),2,11.8,9.72,4518,inactive
CG9568,1,3.3,11.2,6544,inactive
CG14480,1,16.3,22,6156,inactive
flz (filzig),1,,13.6,290,inactive
tut (tumorous testis),1,3.71,3.01,6065,inactive
CG17127,1,2.37,2.58,6927,inactive
CG17127,2,15.3,9.53,5890,inactive
Mp20 (Muscle protein 20),1,18.1,7.58,6405,inactive
Mp20 (Muscle protein 20),2,4.9,2.2,6127,inactive
Dtg (Dpp target gene),1,4.56,16.8,1513,inactive
Dtg (Dpp target gene),2,10.2,22.7,6329,inactive
Neb-cGP,1,1.21,18.8,495,inactive
CG6026,1,10.2,2.26,3287,inactive
Cpr5C (Cuticular protein 5C),1,2.54,2.87,6822,inactive
CG7173,1,16.3,17.7,6148,inactive
CG7173,2,12.8,15.9,5144,inactive
Ir75c (Ionotropic receptor 75c),1,4.27,2.58,6446,inactive
CG42568 + DnaJ-60,1,12.3,6.49,5936,inactive
CG42568 + DnaJ-60,2,28.3,18.7,5823,inactive
CG42568 + DnaJ-60,3,9.62,2.45,6030,inactive
S6k (Ribosomal protein S6 kinase),1,6.05,5.26,5817,inactive
CG32022,1,0.73,0.35,6405,inactive
unpg (unplugged),1,7.13,3.87,6468,inactive
unpg (unplugged),2,22.7,5.05,4652,inactive
mRpL48 (mitochondrial ribosomal protein L48),1,7.96,27.4,6710,inactive
Or24a (Odorant receptor 24a),1,1.06,2.24,6667,inactive
kermit,1,21.5,7.9,5485,inactive
kermit,2,5.45,2.08,6408,inactive
CG15767,1,1.06,0.7,6515,inactive
CG15767,2,2.95,21.4,747,inactive
CG9784,1,3.79,8.42,6839,inactive
CG9784,2,17,14.4,3375,inactive
CR9337 (pseudo),1,8.61,21.7,6379,inactive
CR9337 (pseudo),2,27.8,7.14,5801,inactive
CG8611,1,3.19,0.7,6673,inactive
CG8611,2,4.2,9.27,6138,inactive
CG42518 + MED9,1,18,23.9,5767,inactive
CG40551 (retired record),1,9.14,11.8,6529,inactive
CG1103,1,6.07,8.22,6180,inactive
CG15711,1,30.3,5.97,6381,inactive
Deaf1 (Deformed epidermal autoregulatory factor-1),1,6.96,6.27,6628,inactive
Deaf1 (Deformed epidermal autoregulatory factor-1),2,1.29,15.2,7113,inactive
Deaf1 (Deformed epidermal autoregulatory factor-1),3,2.11,10.1,6628,inactive
Pp2A-29B (Protein phosphatase 2A at 29B),1,10.5,10.3,5900,inactive
Pp2A-29B (Protein phosphatase 2A at 29B),2,,1.1,309,inactive

10 consecutive records from above, quoted:
target gene,reagent,"infection score, replicate 1","infection score, replicate 2","cell count, replicate 1",Call
CG15767,2,2.95,21.4,747,inactive
CG9784,1,3.79,8.42,6839,inactive
CG9784,2,17,14.4,3375,inactive
CR9337 (pseudo),1,8.61,21.7,6379,inactive
CR9337 (pseudo),2,27.8,7.14,5801,inactive
CG8611,1,3.19,0.7,6673,inactive
CG8611,2,4.2,9.27,6138,inactive
CG42518 + MED9,1,18,23.9,5767,inactive
CG40551 (retired record),1,9.14,11.8,6529,inactive
CG1103,1,6.07,8.22,6180,inactive
